Reference: PubChem BioAssay AID588522 (NMMLSC, 2011)
This is a selection; strong and weak results do not stand in their true shares. Active and inactive are the calls of the source.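 The calls were made as follows: active = inhibition above the screen-wide mean plus twice its standard deviation (cut at about 32% in these data); inactive = the rest.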

test system: Candida albicans drug resistance protein 1 (Cdr1) expressed in S. cerevisiae; assay: Cdr1 pump blockade via Nile Red efflux – S. cerevisiae AD/CaCDR1, flow cytometry, cherry pick 1, singleplex, confirmation (AID 588522); conditions: at 10 µM, active compounds read high

| SMILES | inhibition |
| --- | --- |
| O=P(Nc1nccs1)(c1ccccc1)c1nc2ccccc2s1 (stereo unspecified) | inactive: -0.08% |
